Laboratory results taken from patent US20230120677.

Target: Clover-SNAP-25-mRuby2 FRET sensor (UniProt P60880)

In the case of “IALC (inactive BoNT/A-LC, E224Q and Y366F)”, the fluorescence intensity ratio between Clover and mRuby2, co-expression in E. coli is reported as 1.9.
